# Reference: US8003632B2, “Cholinesterase inhibitors for treating inflammation” (priority 2004, dated 2011)
# Test system: murine model of lethal endotoxemia
# Assay: Survival in murine model of lethal endotoxemia
# Format: in vivo, mice
# Settings: 14 days after endotoxin; 0.4 mg/kg i.p. one hour before endotoxin; vehicle none survived
compound,measurement,value
C/C=C1\[C@H]2C=C(C)C[C@]1(N)c1ccc(=O)[nH]c1C2,mice survived,about 75%
